Experimental data from patent US20250115620A1, “BRIDGED TRICYCLIC CARBAMOYLPYRIDONE COMPOUNDS AND USES THEREOF” (Gilead Sciences, Inc., priority 2022, published 2025).
Values joined by “and” are separate entries in the source; they are usually repeats but may differ in a detail not shown here. Equal entries are not always repeated.

System: pLAI reporter virus
Format: cell-based, HIV
Conditions: EC50 (50% HS)/EC50 (CCM)

COC[C@@H]1CO[C@@]2(CC[C@H](C)N3C[C@H]2n2cc(C(=O)NCc4c(F)cc(F)cc4F)c(=O)c(O)c2C3=O)O1 (single isomer, unassigned) [168 (peak 1)]
RLUC 50% HS Shift: 5×

COC[C@@H]1CO[C@]2(CC[C@H](C)N3C[C@H]2n2cc(C(=O)NCc4c(F)cc(F)cc4F)c(=O)c(O)c2C3=O)O1 (single isomer, unassigned) [168 (peak 2)]
RLUC 50% HS Shift: 26×

C[C@H]1CC[C@@]2(OC[C@@H](Cc3ccccc3)O2)[C@H]2CN1C(=O)c1c(O)c(=O)c(C(=O)NCc3c(F)cc(F)cc3F)cn12 (single isomer, unassigned) [169 (peak 1)]
RLUC 50% HS Shift: 7×

C[C@H]1CC[C@]2(OC[C@@H](Cc3ccccc3)O2)[C@H]2CN1C(=O)c1c(O)c(=O)c(C(=O)NCc3c(F)cc(F)cc3F)cn12 (single isomer, unassigned) [169 (peak 2)]
RLUC 50% HS Shift: 2×

CO[C@H]1CS[C@]2(CC[C@H](C)N3C[C@H]2n2cc(C(=O)NCc4c(F)cc(F)cc4F)c(=O)c(O)c2C3=O)O1 (single isomer, unassigned) [170 (peak 1)]
RLUC 50% HS Shift: 16×

CO[C@@H]1CS[C@]2(CC[C@H](C)N3C[C@H]2n2cc(C(=O)NCc4c(F)cc(F)cc4F)c(=O)c(O)c2C3=O)O1 (single isomer, unassigned) [170 (peak 2)]
RLUC 50% HS Shift: 15×

CO[C@H]1CS[C@@]2(CC[C@H](C)N3C[C@H]2n2cc(C(=O)NCc4c(F)cc(F)cc4F)c(=O)c(O)c2C3=O)O1 (single isomer, unassigned) [170 (peak 3)]
RLUC 50% HS Shift: 132×

CO[C@@H]1CS[C@@]2(CC[C@H](C)N3C[C@H]2n2cc(C(=O)NCc4c(F)cc(F)cc4F)c(=O)c(O)c2C3=O)O1 (single isomer, unassigned) [170 (peak 4)]
RLUC 50% HS Shift: 52×

CC1=NO[C@@]2(CC[C@H](C)N3C[C@H]2n2cc(C(=O)NCc4ccc(F)cc4F)c(=O)c(O)c2C3=O)[C@H]1F (single isomer, unassigned) [Example 27 (peak 1)]
RLUC 50% HS Shift: 877×

CC1=NO[C@@]2(CC[C@H](C)N3C[C@H]2n2cc(C(=O)NCc4ccc(F)cc4F)c(=O)c(O)c2C3=O)[C@@H]1F (single isomer, unassigned) [Example 27 (peak 2)]
RLUC 50% HS Shift: 534×

CC1=NN(c2ccccc2)C2(CC[C@H](C)N3C[C@H]2n2cc(C(=O)NCc4c(F)cc(F)cc4F)c(=O)c(O)c2C3=O)C1 (single isomer, unassigned) [Example 90, (3′S,7′R)-12′-hydroxy-3′,5-dimethyl-1′,11′-dioxo-2-phenyl-N-(2,4,6-trifluorobenzyl)-1′,2,4,4′,5′,11′-hexahydro-3′H,7′H-spiro[pyrazole-3,6′-[2,7]methanopyrido[1,2-a][1,4]diazonine]-10′-carboxamide]
RLUC 50% HS Shift: 17× and 9×

C[C@H]1CC[C@]2(CC(=O)N(Cc3ccc(F)cc3)O2)[C@H]2CN1C(=O)c1c(O)c(=O)c(C(=O)NCc3c(F)cc(F)cc3F)cn12 (single isomer, unassigned) [Example 115]
RLUC 50% HS Shift: 17×

CC1=NO[C@@]2(CC[C@H](C)N3C[C@H]2n2cc(C(=O)NCc4ccc(F)cc4F)c(=O)c(O)c2C3=O)C1 [Example 1, (3'S,5S,7′R)—N-(2,4-difluorobenzyl)-12′-hydroxy-3,3′-dimethyl-1′,11′-dioxo-1′,4′,5′,11′-tetrahydro-3′H,4H,7′H-spiro[isoxazole-5,6′-[2,7]methanopyrido[1,2-a][1,4]diazonine]-10′-carboxamide]
RLUC 50% HS Shift: 307× and 368×

CC1=NO[C@]2(CC[C@H](C)N3C[C@H]2n2cc(C(=O)NCc4ccc(F)cc4F)c(=O)c(O)c2C3=O)C1 [Example 2, (3′S,5R,7′R)—N-(2,4-difluorobenzyl)-12′-hydroxy-3,3′-dimethyl-1′,11′-dioxo-1′,4′,5′,11′-tetrahydro-3′H,4H,7′H-spiro[isoxazole-5,6′-[2,7]methanopyrido[1,2-a][1,4]diazonine]-10′-carboxamide]
RLUC 50% HS Shift: 4×

CC1=NO[C@@]2(CC[C@H](C)N3C[C@H]2n2cc(C(=O)NCc4c(F)cc(F)cc4F)c(=O)c(O)c2C3=O)C1 [Example 3, (3′S,5S,7′R)-12′-hydroxy-3,3′-dimethyl-1′,11′-dioxo-N-(2,4,6-trifluorobenzyl)-1′,4′,5′,11′-tetrahydro-3′H,4H,7′H-spiro[isoxazole-5,6′-[2,7]methanopyrido[1,2-a][1,4]diazonine]-10′-carboxamide]
RLUC 50% HS Shift: 356×

CC1=NO[C@]2(CC[C@H](C)N3C[C@H]2n2cc(C(=O)NCc4c(F)cc(F)cc4F)c(=O)c(O)c2C3=O)C1 [Example 4, (3′S,5R,7′R)-12′-hydroxy-3,3′-dimethyl-1′,11′-dioxo-N-(2,4,6-trifluorobenzyl)-1′,4′,5′,11′-tetrahydro-3′H,4H,7′H-spiro[isoxazole-5,6′-[2,7]methanopyrido[1,2-a][1,4]diazonine]-10′-carboxamide]
RLUC 50% HS Shift: 2×

CC1=NO[C@]2(C1)C[C@H](F)[C@H](C)N1C[C@H]2n2cc(C(=O)NCc3ccc(F)cc3F)c(=O)c(O)c2C1=O [Example 5, (3′S,4′S,5R,7′R)—N-(2,4-difluorobenzyl)-4′-fluoro-12′-hydroxy-3,3′-dimethyl-1′,11′-dioxo-1′,4′,5′,11′-tetrahydro-3′H,4H,7′H-spiro[isoxazole-5,6′-[2,7]methanopyrido[1,2-a][1,4]diazonine]-10′-carboxamide]
RLUC 50% HS Shift: 69×

CC1=NO[C@@]2(CC[C@H](C)N3C[C@H]2n2cc(C(=O)NCc4ccc(F)c(Cl)c4F)c(=O)c(O)c2C3=O)C1 [Example 6, (3′S,5S,7′R)—N-(3-chloro-2,4-difluorobenzyl)-12′-hydroxy-3,3′-dimethyl-1′,11′-dioxo-1′,4′,5′,11′-tetrahydro-3′H,4H,7′H-spiro[isoxazole-5,6′-[2,7]methanopyrido[1,2-a][1,4]diazonine]-10′-carboxamide]
RLUC 50% HS Shift: 2717×

CC(C)C1=NO[C@@]2(CC[C@H](C)N3C[C@H]2n2cc(C(=O)NCc4ccc(F)cc4F)c(=O)c(O)c2C3=O)C1 [Example 7, (3′S,5S,7′R)—N-(2,4-difluorobenzyl)-12′-hydroxy-3-isopropyl-3′-methyl-1′,11′-dioxo-1′,4′,5′,11′-tetrahydro-3′H,4H,7′H-spiro[isoxazole-5,6′-[2,7]methanopyrido[1,2-a][1,4]diazonine]-10′-carboxamide]
RLUC 50% HS Shift: 3×

CCC1=NO[C@@]2(CC[C@H](C)N3C[C@H]2n2cc(C(=O)NCc4ccc(F)cc4F)c(=O)c(O)c2C3=O)C1 [Example 8, (3′S,5S,7′R)—N-(2,4-difluorobenzyl)-3-ethyl-12′-hydroxy-3′-methyl-1′,11′-dioxo-1′,4′,5′,11′-tetrahydro-3′H,4H,7′H-spiro[isoxazole-5,6′-[2,7]methanopyrido[1,2-a][1,4]diazonine]-10′-carboxamide]
RLUC 50% HS Shift: 376×

C[C@H]1CC[C@]2(CC(CC(F)(F)F)=NO2)[C@H]2CN1C(=O)c1c(O)c(=O)c(C(=O)NCc3c(F)cc(F)cc3F)cn12 [Example 9]
RLUC 50% HS Shift: 292×

C[C@H]1CC[C@]2(CC(CCCCCl)=NO2)[C@H]2CN1C(=O)c1c(O)c(=O)c(C(=O)NCc3c(F)cc(F)cc3F)cn12 [Example 10, (3′S,5S,7′R)-3-(4-chlorobutyl)-12′-hydroxy-3′-methyl-1′,11′-dioxo-N-(2,4,6-trifluorobenzyl)-1′,4′,5′,11′-tetrahydro-3′H,4H,7′H-spiro[isoxazole-5,6′-[2,7]methanopyrido[1,2-a][1,4]diazonine]-10′-carboxamide]
RLUC 50% HS Shift: 6×

C[C@H]1CC[C@]2(CC(c3ccccc3)=NO2)[C@H]2CN1C(=O)c1c(O)c(=O)c(C(=O)NCc3ccc(F)cc3F)cn12 [Example 11, (3′S,5S,7′R)—N-(2,4-difluorobenzyl)-12′-hydroxy-3′-methyl-1′,11′-dioxo-3-phenyl-1′,4′,5′,11′-tetrahydro-3′H,4H,7′H-spiro[isoxazole-5,6′-[2,7]methanopyrido[1,2-a][1,4]diazonine]-10′-carboxamide]
RLUC 50% HS Shift: 9×

C[C@H]1CC[C@]2(CC(Cc3ccccc3)=NO2)[C@H]2CN1C(=O)c1c(O)c(=O)c(C(=O)NCc3ccc(F)cc3F)cn12 [Example 12, (3′S,5S,7′R)-3-benzyl-N-(2,4-difluorobenzyl)-12′-hydroxy-3′-methyl-1′,11′-dioxo-1′,4′,5′,11′-tetrahydro-3′H,4H,7′H-spiro[isoxazole-5,6′-[2,7]methanopyrido[1,2-a][1,4]diazonine]-10′-carboxamide]
RLUC 50% HS Shift: 32×

C[C@H]1CC[C@]2(CC(c3ccccn3)=NO2)[C@H]2CN1C(=O)c1c(O)c(=O)c(C(=O)NCc3ccc(F)cc3F)cn12 [Example 13, (3′S,5S,7′R)—N-(2,4-difluorobenzyl)-12′-hydroxy-3′-methyl-1′,11′-dioxo-3-(pyridin-2-yl)-1′,4′,5′,11′-tetrahydro-3′H,4H,7′H-spiro[isoxazole-5,6′-[2,7]methanopyrido[1,2-a][1,4]diazonine]-10′-carboxamide]
RLUC 50% HS Shift: 1×

C[C@H]1CC[C@]2(CC(c3cccnc3)=NO2)[C@H]2CN1C(=O)c1c(O)c(=O)c(C(=O)NCc3ccc(F)cc3F)cn12 [Example 14, (3′S,5S,7′R)—N-(2,4-difluorobenzyl)-12′-hydroxy-3′-methyl-1′,11′-dioxo-3-(pyridin-3-yl)-1′,4′,5′,11′-tetrahydro-3′H,4H,7′H-spiro[isoxazole-5,6′-[2,7]methanopyrido[1,2-a][1,4]diazonine]-10′-carboxamide]
RLUC 50% HS Shift: 5×

C[C@H]1CC[C@]2(CC(C3CC3)=NO2)[C@H]2CN1C(=O)c1c(O)c(=O)c(C(=O)NCc3ccc(F)cc3F)cn12 [Example 15, (3′S,5S,7′R)-3-cyclopropyl-N-(2,4-difluorobenzyl)-12′-hydroxy-3′-methyl-1′,11′-dioxo-1′,4′,5′,11′-tetrahydro-3′H,4H,7′H-spiro[isoxazole-5,6′-[2,7]methanopyrido[1,2-a][1,4]diazonine]-10′-carboxamide]
RLUC 50% HS Shift: 5×
